Measured values from several laboratories, pooled; numbers as filed in NIAID ChemDB.

All rows: whole-cell or culture tests; organism: HIV-1; cells: CEM + CEM TK-; read-out: EC50

Blank or dashed fields: not listed here.

compound | strain or isolate | method | value
CCOC(=O)P(=O)(OCc1ccc(Cl)cc1)OCc1ccc(Cl)cc1 | LAI | RT activity | >10 µM
Nc1ccn([C@H]2CC[C@@H](CO)O2)c(=O)n1 | LAI | - | 0.0019 µM
Cc1cn([C@H]2C[C@H](N=[N+]=[N-])[C@@H](COP(=O)(OCc3ccccc3)OCc3ccccc3)O2)c(=O)[nH]c1=O | - | cytopathic effect | >100 µM
Cc1cn([C@H]2C[C@H](N=[N+]=[N-])[C@@H](COP(=O)(O)O)O2)c(=O)[nH]c1=O | - | MTT | 10 µM
Nc1ncnc2c1ncn2[C@H]1CC[C@@H](CO)O1 | LAI | RT activity | 1 µM
Cc1cn([C@H]2C[C@H](N=[N+]=[N-])[C@@H](CO)O2)c(=O)[nH]c1=O | LAI | RT activity | >100 µM
CCOC(=O)[C@H](C)NP(=O)(OC[C@@H]1C=C[C@H](n2cc(C)c(=O)[nH]c2=O)O1)Oc1ccccc1 | IIIB | cytopathic effect / trypan blue | 0.1 µM
CC(=O)SCCOP(=O)(OCCSC(C)=O)OC[C@@H]1CC[C@H](n2cc(C)c(=O)[nH]c2=O)O1 | LAI | RT activity | 0.5 µM
Cc1cn([C@H]2C[C@H](N=[N+]=[N-])[C@@H](COP(=O)(OCCCCSC(=O)C(C)(C)C)OCCCCSC(=O)C(C)(C)C)O2)c(=O)[nH]c1=O | LAI | RT activity | >10 µM
CCOC(=O)[C@H](C)NP(=O)(OC[C@@H]1O[C@H](n2cc(C)c(=O)[nH]c2=O)C[C@H]1N=[N+]=[N-])OC[C@H]1O[C@@H](n2cc(C)c(=O)[nH]c2=O)C[C@@H]1N=[N+]=[N-] | LAI | RT activity | 89 µM
CC(=O)SCCOP(=O)(OCCSC(C)=O)OC[C@@H]1CC[C@H](n2cnc3c(N)ncnc32)O1 | LAI | RT activity | 0.00077 µM
CC(=O)SCCOP(=O)(OCCSC(C)=O)OC[C@H]1O[C@@H](n2cc(C)c(=O)[nH]c2=O)C[C@@H]1N=[N+]=[N-] | LAI | RT activity | 0.039 µM
CC(=O)SCCOP(=O)(OCCSC(C)=O)OC[C@H]1O[C@@H](n2cc(C)c(=O)[nH]c2=O)C[C@@H]1N=[N+]=[N-] | LAI | RT activity | >100 µM
CC(C)(C)C(=O)OCCSP(=O)(OC[C@@H]1C=C[C@H](n2cnc3c(N)ncnc32)O1)SCCOC(=O)C(C)(C)C | - | - | 0.0077 µM
CCOC(=O)CCNP(=O)(OC[C@@H]1O[C@H](n2cc(C)c(=O)[nH]c2=O)C[C@H]1N=[N+]=[N-])OC[C@H]1O[C@@H](n2cc(C)c(=O)[nH]c2=O)C[C@@H]1N=[N+]=[N-] | LAI | RT activity | 64 µM
COC(=O)[C@H](C)NP(=O)(OC[C@H]1O[C@@H](n2cc(C)c(=O)[nH]c2=O)C[C@@H]1N=[N+]=[N-])Oc1ccccc1 | IIIB | RT activity | 1.7–4.1 µM
Cc1cn([C@H]2C[C@H](N=[N+]=[N-])[C@@H](COP(=O)(O)O)O2)c(=O)[nH]c1=O | IIIB | - | 39 µM
CCCCCCCCOC(=O)P(=O)(OCc1ccc(Cl)cc1)OCc1ccc(Cl)cc1 | LAI | RT activity | 7.4 µM
CC(C)(C)C(=O)OCCSP(=O)(OC[C@@H]1CC[C@H](n2cnc3c(N)ncnc32)O1)SCCOC(=O)C(C)(C)C | LAI | RT activity | 0.00012 µM
Cc1cn([C@H]2C=C[C@@H](CO)O2)c(=O)[nH]c1=O | - | - | 15 µM
Nc1ccn([C@@H]2CC[C@H](CO)O2)c(=O)n1 | IIIB | - | 0.09 µM
Cc1cn([C@H]2C=C[C@@H](COP(=O)(OCc3ccccc3)OCc3ccccc3)O2)c(=O)[nH]c1=O | - | cytopathic effect | 5.5 µM
Nc1ncnc2c1ncn2[C@H]1CC[C@@H](CO)O1 | LAI | RT activity | 1.1 µM
O=c1[nH]cnc2c1ncn2[C@H]1CC[C@@H](CO)O1 | LAI | RT activity | 0.95 µM
Cc1cn([C@H]2C=C[C@@H](COP(=O)(O)OCc3ccccc3)O2)c(=O)[nH]c1=O | - | - | 0.3 µM
O=c1[nH]cnc2c1ncn2[C@H]1CC[C@@H](CO)O1 | LAI | RT activity | 0.95 µM
Cc1cn([C@H]2C[C@H](N=[N+]=[N-])[C@@H](CO)O2)c(=O)[nH]c1=O | LAI | RT activity | >100 µM
Cc1cn([C@H]2CC[C@@H](CO)O2)c(=O)[nH]c1=O | LAI | RT activity | >100 µM
CC(C)(C)C(=O)SCCOC(=O)P(=O)(O)OCCSC(=O)C(C)(C)C | LAI | RT activity | 20 µM
Nc1ncnc2c1ncn2[C@H]1CC[C@@H](CO)O1 | LAI | RT activity | 0.49 µM
CCCCCCCCOC(=O)P(=O)(OC[C@H]1O[C@@H](n2cc(C)c(=O)[nH]c2=O)C[C@@H]1N=[N+]=[N-])OC[C@H]1O[C@@H](n2cc(C)c(=O)[nH]c2=O)C[C@@H]1N=[N+]=[N-] | LAI | RT activity | >1 µM

Repeating the first 4 entries:

compound | strain or isolate | method | value
CCOC(=O)P(=O)(OCc1ccc(Cl)cc1)OCc1ccc(Cl)cc1 | LAI | RT activity | >10 µM
Nc1ccn([C@H]2CC[C@@H](CO)O2)c(=O)n1 | LAI | - | 0.0019 µM
Cc1cn([C@H]2C[C@H](N=[N+]=[N-])[C@@H](COP(=O)(OCc3ccccc3)OCc3ccccc3)O2)c(=O)[nH]c1=O | - | cytopathic effect | >100 µM
Cc1cn([C@H]2C[C@H](N=[N+]=[N-])[C@@H](COP(=O)(O)O)O2)c(=O)[nH]c1=O | - | MTT | 10 µM

ECn: concentration that inhibits the pathogen or its effect by n%. Rows are shuffled and stem from different studies. Two numbers with a dash give a range or band.